Laboratory results: PubChem BioAssay AID504761 (Drosophila RNAi Screening Center, 2011)

Purpose: 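Insect host genes that dengue virus relies on to spread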 (primary screen)
Cell system: D.Mel-2 cells from Drosophila
Knock-down reagent: long dsRNA against Drosophila genes
Challenge: infection with dengue virus type 2; dose and infection time not stated
Measured: 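Per well on two replicate plates, imaging gave the percent of cells positive for viral envelope protein, ranked by infection, and a nuclear count of cells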
Direction: infection score: higher = more virus-infected cells; cell count: higher = more cells in the well
Active means: 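Low infection ranks in the two replicates (chance level up to 0.065) followed by a retest with a 1.5-fold or larger significant decrease, p below 0.05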
Calls: active = confirmed: knock-down lowers infection; inactive = not picked or not confirmed
The screen tested about 22,000 reagents; this is an unselected part of those that have a named target and a result. Of all reagents, 116 (0.52%) were called active. 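Calls depend on retest data that are not deposited; infection was ranked per plate without normalising between plates; the unit of the infection score is not given.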 Raw values vary from plate to plate and are shown uncorrected. A plus sign joins genes that one reagent is predicted to hit. Not given: the amount of reagent, the time to read-out.

Target gene | amplicon | infection score, replicate 1 | infection score, replicate 2 | cell count, replicate 1 | cell count, replicate 2 | Call
Idgf5 (Imaginal disc growth factor 5) | DRSC06919 | 10.9 | 12.1 | 6898 | 6511 | inactive
Idgf5 (Imaginal disc growth factor 5) | DRSC26392 | 5.01 | 4.09 | 5893 | 5764 | inactive
IPIP (Inositol phosphatase interacting protein) | DRSC02164 | 5.49 | 6.58 | 6172 | 6432 | inactive
IPIP (Inositol phosphatase interacting protein) | DRSC27480 | 24.9 | 16.7 | 5556 | 3077 | inactive
Cds + Setx | DRSC27090 | 9.14 | 7.43 | 6607 | 7196 | inactive
Cdk1 (Cyclin-dependent kinase 1) | DRSC03504 | 8.19 | 11.6 | 513 | 845 | inactive
Thor | DRSC00770 | 2.57 | 1.52 | 6622 | 6433 | inactive
Spt3 | DRSC15465 | 4.83 | 9.86 | 6189 | 6642 | inactive
Spt3 | DRSC25502 | 2.4 | 1.36 | 6672 | 6763 | inactive
Bet3 (Blocked early in transport 3) | DRSC10388 | 1.63 | 2.03 | 5759 | 5266 | inactive
Sap-r (Saposin-related) | DRSC16849 | 5.59 | 6.56 | 6354 | 5732 | inactive
Sap-r (Saposin-related) | DRSC21916 | 2.11 | 21.3 | 6296 | 2841 | inactive
Sap-r (Saposin-related) | DRSC27246 | 9.39 | 3.28 | 6105 | 5950 | inactive
twy (twitchy) | DRSC10562 | 2.93 | 3.3 | 6209 | 6301 | inactive
CG4593 | DRSC18374 | 2.62 | 3.39 | 6598 | 6778 | inactive
CG4593 | DRSC29173 | 15.1 | 20.5 | 3466 | 5629 | inactive
Slc25A46b | DRSC02888 | 10.5 | 11.6 | 6102 | 3177 | inactive
CG16711 | DRSC10220 | 1.69 | 3.1 | 6050 | 6454 | inactive
CG16711 | DRSC23733 | 4.93 | 3.8 | 5924 | 6100 | inactive
Osi23 (Osiris 23) | DRSC15074 | 11 | 3.1 | 4861 | 6038 | inactive
CG34429 | DRSC10120 | 0.37 | 1.47 | 6280 | 6519 | inactive
CG34375 | DRSC14684 | 3.68 | 6.15 | 6544 | 6077 | inactive
CG34375 | DRSC14685 | 3.1 | 2.05 | 6590 | 6379 | inactive
CG34375 | DRSC24412 | 4.72 | 9.25 | 5870 | 6403 | inactive
CG7745 | DRSC23103 | 0.98 | 3.46 | 6448 | 6793 | inactive
CG7745 | DRSC29591 | 3.93 | 3.25 | 1656 | 676 | inactive
Jon99Ciii (Jonah 99Ciii) | DRSC16859 | 5.72 | 7.53 | 4612 | 930 | inactive
CG34247 | DRSC09933 | 5.88 | 20.6 | 6413 | 5375 | inactive
Hrb87F (Heterogeneous nuclear ribonucleoprotein at 87F) | DRSC16708 | 6.47 | 11.2 | 5597 | 5578 | inactive
Hrb87F (Heterogeneous nuclear ribonucleoprotein at 87F) | DRSC29600 | 24.9 | 16.1 | 4966 | 3194 | inactive
CG10809 | DRSC09802 | 0.38 | 2.45 | 6789 | 6447 | inactive
CG10809 | DRSC29041 | – | 1.97 | 344 | 1066 | inactive
CG33342 (HDC15381) | DRSC13662 | 1.3 | 1.15 | 6443 | 6426 | inactive
Mi-2 + Su(Tpl) | DRSC09640 | 2.21 | 1.53 | 6552 | 5948 | inactive
jb (jean-baptiste) | DRSC20531 | 0.68 | 3.44 | 6027 | 6025 | inactive
KP78b + KP78a | DRSC23338 | 0.79 | 6.26 | 6587 | 6966 | inactive
KP78b + KP78a | DRSC23341 | 1.34 | 7.48 | 6579 | 6681 | inactive
KP78b + KP78a | DRSC29265 | 14.9 | 10.2 | 5708 | 6522 | inactive
Dic1 | DRSC14125 | 7 | 7.1 | 5943 | 6116 | inactive
Sodh2 (Sorbitol dehydrogenase 2) | DRSC16865 | 1.77 | 15.5 | 6428 | 5571 | inactive
CtsK1 (Cathepsin K1) | DRSC08742 | 1.7 | 1.25 | 5834 | 6090 | inactive
CG8501 | DRSC07198 | 0.93 | 3 | 6120 | 6358 | inactive
CG4066 | DRSC15541 | 2.04 | 17.6 | 6901 | 5591 | inactive
CG4066 | DRSC29744 | 9.18 | 5.72 | 6516 | 5978 | inactive
Argl + CG9515 | DRSC03243 | 37.4 | – | 5382 | 435 | inactive
Argl + CG9515 | DRSC03245 | 15.4 | 6.8 | 5872 | 6337 | inactive
CG34159 | DRSC23222 | 2.72 | 1.87 | 6864 | 6914 | inactive
SMC1 (Structural maintenance of chromosomes 1) | DRSC16846 | 5.23 | 5.52 | 5828 | 6136 | inactive
CG11425 | DRSC11657 | 4.16 | 2.5 | 5835 | 5771 | inactive
CG11425 | DRSC28400 | – | 3.02 | 401 | 1591 | inactive
cad (caudal) | DRSC23193 | 3.86 | 32.9 | 5991 | 5722 | inactive
cad (caudal) | DRSC27989 | 11.7 | 28.4 | 6814 | 5622 | inactive
CG13737 | DRSC10064 | 0.97 | 2.45 | 6257 | 6658 | inactive
CG14294 | DRSC14774 | 3.32 | 10.4 | 6861 | 5235 | inactive
CG6695 | DRSC16098 | 4.58 | 3.21 | 6766 | 6365 | inactive
CG6695 | DRSC24623 | 13.9 | 8 | 4896 | 6111 | inactive
CG7275 | DRSC10796 | 21.5 | 11.2 | 5011 | 6328 | inactive
Arpc1 (Actin-related protein 2/3 complex, subunit 1) | DRSC03438 | 46.2 | 33.9 | 5065 | 5291 | inactive
Arpc1 (Actin-related protein 2/3 complex, subunit 1) | DRSC29641 | 21.3 | 7.75 | 5897 | 1665 | inactive
CG31688 | DRSC02682 | 3.36 | 2.08 | 6610 | 6698 | inactive
CG31688 | DRSC26711 | 1.07 | 2.04 | 6260 | 6371 | inactive
mRpL21 (mitochondrial ribosomal protein L21) | DRSC11100 | 6.23 | 12.7 | 4798 | 4736 | inactive
Gnmt (Glycine N-methyltransferase) | DRSC15987 | 3.26 | 0.94 | 6234 | 6093 | inactive
trol (terribly reduced optic lobes) | DRSC18613 | 10.7 | 10.1 | 1290 | 6691 | inactive
trol (terribly reduced optic lobes) | DRSC18814 | 17.2 | 0.4 | 5127 | 7023 | inactive
sob | DRSC00838 | 2.62 | 2.31 | 5995 | 6068 | inactive
sob | DRSC25075 | 2.41 | 0.7 | 6359 | 6563 | inactive
CG14435 | DRSC23282 | 1.34 | 7.14 | 6025 | 6984 | inactive
CG33099 | DRSC15774 | 2.34 | 3.09 | 6113 | 6624 | inactive
CG33099 | DRSC29273 | 19.9 | 11.7 | 2870 | 6615 | inactive
CG17292 | DRSC02594 | 1.93 | 2.67 | 6535 | 5959 | inactive
CG17292 | DRSC27746 | 6.35 | 7.88 | 6838 | 6889 | inactive
CG7140 | DRSC11799 | 4.48 | 4.46 | 6361 | 6681 | inactive
CG5402 | DRSC15792 | 3.84 | 1.99 | 6482 | 6947 | inactive
CG5402 | DRSC26273 | 19.9 | 9.9 | 5803 | 6587 | inactive

Part of the list above, reformatted.
| Target gene | amplicon | infection score, replicate 1 | infection score, replicate 2 | cell count, replicate 1 | cell count, replicate 2 | Call |
| --- | --- | --- | --- | --- | --- | --- |
| Mi-2 + Su(Tpl) | DRSC09640 | 2.21 | 1.53 | 6552 | 5948 | inactive |
| jb (jean-baptiste) | DRSC20531 | 0.68 | 3.44 | 6027 | 6025 | inactive |
| KP78b + KP78a | DRSC23338 | 0.79 | 6.26 | 6587 | 6966 | inactive |
| KP78b + KP78a | DRSC23341 | 1.34 | 7.48 | 6579 | 6681 | inactive |
| KP78b + KP78a | DRSC29265 | 14.9 | 10.2 | 5708 | 6522 | inactive |
| Dic1 | DRSC14125 | 7 | 7.1 | 5943 | 6116 | inactive |
| Sodh2 (Sorbitol dehydrogenase 2) | DRSC16865 | 1.77 | 15.5 | 6428 | 5571 | inactive |
